Values quoted from earlier work, collected in publication PMC2742502 (Journal of immunology (Baltimore, Md. : 1950), 2008).

Test system: T cells from healthy donors
Settings: HLA-A0201 restricted, ref M. Wolfl, unpublished data; cited from earlier work

## HIVgagp17 76–84: HLA-A0201 restricted epitope (SLYNTVATL; Matrix protein p17; UniProt P04591 77-85, looked up, fragment)
  induction of T cell responses: able to induce T-cell responses against this epitope
